The values below are quoted from earlier work in patent US6475491B1, “Treatment of HIV and other viral infections using combinatorial therapy” (priority 1995, dated 2002).

Entries after “also recorded” stand apart in the source; their conditions may differ.

The test system of the series is HIV-1LA1. The note with it: control peptides; cited from earlier work.

Turning to `CC[C@H](C)[C@H](NC(=O)[C@H](C)NC(=O)[C@@H](NC(=O)[C@@H](NC(=O)[C@H](CCCNC(=N)N)NC(=O)[C@H](C)NC(=O)[C@H](CCC(N)=O)NC(=O)[C@H](CC(C)C)NC(=O)[C@H](CC(N)=O)NC(=O)[C@H](CCCCN)NC(=O)[C@@H](NC(=O)CNC(=O)[C@H](Cc1c[nH]c2ccccc12)NC(=O)[C@@H](NC(=O)[C@@H](NC(=O)[C@H](CC(C)C)NC(=O)[C@H](CCCNC(=N)N)NC(=O)[C@H](CC(C)C)NC(=O)[C@H](CCSC)NC(=O)[C@H](CCC(=O)O)NC(=O)[C@H](CCC(N)=O)NC(=O)[C@H](CCC(N)=O)NC(=O)[C@H](CCCNC(=N)N)NC(=O)[C@H](CCCCN)NC(=O)[C@@H](NC(=O)[C@@H](NC(=O)[C@H](CC(=O)O)NC(=O)[C@H](CC(C)C)NC(=O)[C@H](CC(C)C)NC(=O)[C@H](CCC(N)=O)NC(=O)[C@H](CCC(N)=O)NC(C)=O)C(C)C)C(C)C)[C@@H](C)O)C(C)C)[C@@H](C)O)C(C)C)[C@@H](C)O)C(=O)N[C@@H](CCC(=O)O)C(=O)N[C@@H](CCCCN)C(=O)N[C@@H](Cc1ccc(O)cc1)C(=O)N[C@@H](CC(C)C)C(=O)N[C@@H](CCCCN)C(=O)N[C@@H](CC(=O)O)C(=O)N[C@@H](CCC(N)=O)C(N)=O` [DP-118], the “activity previously shown in the cell-free virus infection assay” value is given as “active; also recorded: inhibits HIV-1 cell free virus infection”. As to `CC[C@H](C)[C@H](NC(=O)CNC(=O)[C@H](Cc1c[nH]c2ccccc12)NC(=O)[C@@H](NC(=O)[C@@H](NC(=O)[C@H](CC(C)C)NC(=O)[C@H](CCC(N)=O)NC(=O)[C@H](CC(C)C)NC(=O)[C@H](CC(C)C)NC(=O)[C@H](Cc1c[nH]cn1)NC(=O)[C@H](CCC(N)=O)NC(=O)[C@H](CCC(N)=O)NC(=O)[C@H](C)NC(=O)[C@H](CCC(=O)O)NC(=O)[C@@H](NC(=O)[C@H](C)NC(=O)[C@H](CCCNC(=N)N)NC(=O)[C@H](CC(C)C)NC(=O)[C@H](CC(C)C)NC(=O)[C@H](CC(N)=O)NC(=O)[C@H](CC(N)=O)NC(=O)CNC(=O)CNC(=O)[C@H](CS)NC(C)=O)[C@@H](C)CC)[C@@H](C)O)C(C)C)C(=O)N[C@@H](CCCCN)C(=O)N[C@@H](CCC(N)=O)C(=O)N[C@@H](CC(C)C)C(=O)N[C@@H](CCC(N)=O)C(=O)N[C@@H](C)C(=O)N[C@@H](CCCNC(=N)N)C(=O)N[C@H](C(=O)N[C@@H](CC(C)C)C(=O)N[C@@H](C)C(=O)N[C@H](C(=O)N[C@@H](CCC(=O)O)C(=O)N[C@@H](CCCNC(=N)N)C(=O)N[C@@H](Cc1ccc(O)cc1)C(=O)N[C@@H](CC(C)C)C(=O)N[C@@H](CCCCN)C(=O)N[C@@H](CC(=O)O)C(=O)N[C@@H](CCC(N)=O)C(N)=O)C(C)C)[C@@H](C)CC` [DP-125], the “activity previously shown in the cell-free virus infection assay” value was “active; also recorded: inhibit HIV-1 cell free virus infection”.
